The values that follow come from paper PMC9491098, “Discovery of novel drug-like antitubercular hits targeting the MEP pathway enzyme DXPS by strategic application of ligand-based virtual screening” (Chemical Science, 2022).

Chains of the proteins cited; added tags and fusions are not shown.
UniProt P9WNS3, whole entry: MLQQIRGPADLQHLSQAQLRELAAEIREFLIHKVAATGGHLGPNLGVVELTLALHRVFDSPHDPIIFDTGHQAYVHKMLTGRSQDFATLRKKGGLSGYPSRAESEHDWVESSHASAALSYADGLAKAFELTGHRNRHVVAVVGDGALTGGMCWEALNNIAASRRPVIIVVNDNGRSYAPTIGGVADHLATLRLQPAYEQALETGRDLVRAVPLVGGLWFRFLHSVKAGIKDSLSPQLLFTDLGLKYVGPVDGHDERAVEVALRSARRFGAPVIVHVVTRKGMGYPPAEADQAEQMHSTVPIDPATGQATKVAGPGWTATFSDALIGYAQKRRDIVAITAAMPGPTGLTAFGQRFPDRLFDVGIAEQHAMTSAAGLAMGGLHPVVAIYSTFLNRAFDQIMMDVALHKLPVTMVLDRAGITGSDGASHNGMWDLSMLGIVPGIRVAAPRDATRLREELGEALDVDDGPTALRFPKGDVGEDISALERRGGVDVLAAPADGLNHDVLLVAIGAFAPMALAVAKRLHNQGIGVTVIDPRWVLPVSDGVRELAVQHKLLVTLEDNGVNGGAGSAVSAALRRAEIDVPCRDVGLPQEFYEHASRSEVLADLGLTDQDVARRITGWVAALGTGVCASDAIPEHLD

The assay deals with MtDXPS (Mycobacterium tuberculosis, UniProt P9WNS3). Nature of the assay: tight-binding Morrison Ki* determination against MtDXPS (Dynafit). Format: biochemical. As to conditions: Table 1B, oxime derivatives.

Structures were worked out from names or drawings and are uncertain.

`O/N=C(\Cc1ccc(Cl)cc1)c1ccccc1` registered a Ki of 1100 nM.
